Reference: PubChem BioAssay AID1224833 (University of Georgia, 2016)
This is one part, drawn at random, of about 12,000 reagents. In the full data, about 5,600 (46%) are marked active. 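Active calls cover z-scores past 1 in both directions, so they include lowered as well as raised rotavirus replication.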

Screen: 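Host factors restraining rotavirus as candidate antiviral genes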 (primary screen)
Cells: monkey MA104 kidney cells
Knock-down reagent: siRNA pool against human genes, 50 nM
Time to read-out: 48 h knock-down before infection; read 24 h after infection
Conditions: infection with rotavirus strain RV3 two days after transfection; infectious dose for this stage not given
Measured: 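Rotavirus antigen per well by fluorescent immunoassay, normalised to non-targeting control wells on each plate and given as a standard z-score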
Scale: z-score vs non-targeting control: higher = more rotavirus replication than with non-targeting control
Hit rule: In these data the active calls have z-score vs non-targeting control at about -1 or lower, or at about 1 or higher
Calls: active = z-score beyond 1 either way; inactive = z-score within 1 of zero

Gene | z-score vs non-targeting control | activity call
GOLT1A (golgi transport 1A) | -0.708 | inactive
RMI1 (RecQ mediated genome instability 1) | -0.482 | inactive
ZNF217 (zinc finger protein 217) | 0.0863 | inactive
ITGB4 (integrin subunit beta 4) | 1.87 | active
TAS2R5 (taste 2 receptor member 5) | -1.13 | active
TSPAN8 (tetraspanin 8) | 0.0284 | inactive
MAP2 (microtubule associated protein 2) | -1.57 | active
RAP1GAP2 (RAP1 GTPase activating protein 2) | -0.98 | inactive
IRX4 (iroquois homeobox 4) | -0.881 | inactive
LY6D (lymphocyte antigen 6 family member D) | -0.933 | inactive
MAPT (microtubule associated protein tau) | 0.0765 | inactive
CLEC6A (C-type lectin domain containing 6A) | 0.192 | inactive
WRNIP1 (WRN helicase interacting protein 1) | -1.32 | active
DAB2 (DAB adaptor protein 2) | 0.606 | inactive
S100A1 (S100 calcium binding protein A1) | 0.368 | inactive
PLEC (plectin) | -0.639 | inactive
VPS50 (VPS50 subunit of EARP/GARPII complex) | -0.549 | inactive
FUBP3 (far upstream element binding protein 3) | -0.964 | inactive
MS4A14 (membrane spanning 4-domains A14) | -0.646 | inactive
NECTIN1 (nectin cell adhesion molecule 1) | -0.179 | inactive
LARS1 (leucyl-tRNA synthetase 1) | 2.64 | active
IRF7 (interferon regulatory factor 7) | -1.71 | active
DMKN (dermokine) | -0.51 | inactive
IRGC (immunity related GTPase cinema) | 1.3 | active
WDHD1 (WD repeat and HMG-box DNA binding protein 1) | -0.643 | inactive
NAA80 (N-alpha-acetyltransferase 80, NatH catalytic subunit) | -0.867 | inactive
PIK3R3 (phosphoinositide-3-kinase regulatory subunit 3) | 2.95 | active
OR5AS1 (olfactory receptor family 5 subfamily AS member 1) | -0.567 | inactive
MED12L (mediator complex subunit 12L) | 0.143 | inactive
POLDIP3 (DNA polymerase delta interacting protein 3) | 2.71 | active
ZNF35 (zinc finger protein 35) | -0.659 | inactive
SETDB1 (SET domain bifurcated histone lysine methyltransferase 1) | -0.912 | inactive
ARFIP1 (ARF interacting protein 1) | 0.0932 | inactive
HES4 (hes family bHLH transcription factor 4) | -1.34 | active
FTL (ferritin light chain) | -1.44 | active
SLC6A18 | -1.08 | active
PRPF6 (pre-mRNA processing factor 6) | 0.246 | inactive
ST3GAL1 (ST3 beta-galactoside alpha-2,3-sialyltransferase 1) | -1.06 | active
TARP (TCR gamma alternate reading frame protein) | 0.447 | inactive
SSR1 (signal sequence receptor subunit 1) | -0.866 | inactive
CAB39L (calcium binding protein 39 like) | 0.402 | inactive
TENT5B (terminal nucleotidyltransferase 5B) | 0.87 | inactive
ANP32E (acidic nuclear phosphoprotein 32 family member E) | 0.218 | inactive
SLC43A3 | -1.06 | active
EAF2 (ELL associated factor 2) | 1.29 | active
RGS20 (regulator of G protein signaling 20) | 2.24 | active
NDUFAF1 (NADH:ubiquinone oxidoreductase complex assembly factor 1) | 0.564 | inactive
LMAN1L (lectin, mannose binding 1 like) | -0.129 | inactive
SPRYD7 (SPRY domain containing 7) | -1.28 | active
SBNO1 (strawberry notch homolog 1) | 0.569 | inactive
OR5I1 (olfactory receptor family 5 subfamily I member 1) | 0.601 | inactive
SPINK13 (serine peptidase inhibitor Kazal type 13) | -2.53 | active
SERPINI1 (serpin family I member 1) | -2.73 | active
RAD9B (RAD9 checkpoint clamp component B) | -0.691 | inactive
CERS2 (ceramide synthase 2) | -0.366 | inactive
MBD1 (methyl-CpG binding domain protein 1) | -0.875 | inactive
BCL7C (BAF chromatin remodeling complex subunit BCL7C) | -0.559 | inactive
THG1L (tRNA-histidine guanylyltransferase 1 like) | 0.964 | inactive
KCMF1 (potassium channel modulatory factor 1) | -1.45 | active
CDH17 (cadherin 17) | 1.2 | active
CALHM1 (calcium homeostasis modulator 1) | -2.08 | active
GYS1 (glycogen synthase 1) | -1.25 | active
CBX8 (chromobox 8) | -1.9 | active
RARS1 (arginyl-tRNA synthetase 1) | -0.844 | inactive
TMEM244 (transmembrane protein 244) | 0.256 | inactive
GPX8 (glutathione peroxidase 8 (putative)) | 2.58 | active
NLRP6 (NLR family pyrin domain containing 6) | 2.79 | active
RFX3 (regulatory factor X3) | -0.847 | inactive
SIGLEC11 (sialic acid binding Ig like lectin 11) | 0.538 | inactive
HES2 (hes family bHLH transcription factor 2) | -0.537 | inactive
ADRA1B (adrenoceptor alpha 1B) | -1.06 | active
FHL3 (four and a half LIM domains 3) | -0.614 | inactive
SYTL1 (synaptotagmin like 1) | -0.566 | inactive
APOBEC3G (apolipoprotein B mRNA editing enzyme catalytic subunit 3G) | 0.555 | inactive
AOC3 (amine oxidase copper containing 3) | -1.22 | active
H3C2 (H3 clustered histone 2) | 1.06 | active
CYP4F3 (cytochrome P450 family 4 subfamily F member 3) | 0.663 | inactive
ENAM (enamelin) | -0.732 | inactive
EIF3M (eukaryotic translation initiation factor 3 subunit M) | -1.56 | active
SRGAP1 (SLIT-ROBO Rho GTPase activating protein 1) | 3.8 | active
ASTN2 (astrotactin 2) | -0.828 | inactive
TMEM38A (transmembrane protein 38A) | 0.379 | inactive
OCIAD1 (OCIA domain containing 1) | 0.234 | inactive
OR9A2 (olfactory receptor family 9 subfamily A member 2) | -1 | active
LZIC (leucine zipper and CTNNBIP1 domain containing) | -0.5 | inactive
LGALSL (galectin like) | -2.92 | active

The list goes on; the last 7 above are carried over.
Gene | z-score vs non-targeting control | activity call
SRGAP1 (SLIT-ROBO Rho GTPase activating protein 1) | 3.8 | active
ASTN2 (astrotactin 2) | -0.828 | inactive
TMEM38A (transmembrane protein 38A) | 0.379 | inactive
OCIAD1 (OCIA domain containing 1) | 0.234 | inactive
OR9A2 (olfactory receptor family 9 subfamily A member 2) | -1 | active
LZIC (leucine zipper and CTNNBIP1 domain containing) | -0.5 | inactive
LGALSL (galectin like) | -2.92 | active
UBTF (upstream binding transcription factor) | -2.48 | active
PCDHGC5 (protocadherin gamma subfamily C, 5) | 0.525 | inactive
MTUS1 (microtubule associated scaffold protein 1) | -2.1 | active
PIWIL3 (piwi like RNA-mediated gene silencing 3) | 0.961 | inactive
LGALS14 (galectin 14) | -0.0979 | inactive
SCT (secretin) | 3.25 | active
SLC51A | 0.239 | inactive
PUS7L (pseudouridine synthase 7 like) | -1.35 | active
KDM6B (lysine demethylase 6B) | 0.686 | inactive
PRDM13 (PR/SET domain 13) | 0.156 | inactive
NUP37 (nucleoporin 37) | -0.696 | inactive
CFHR3 (complement factor H related 3) | -1.48 | active
ITGB5 (integrin subunit beta 5) | -0.31 | inactive
ZPLD1 (zona pellucida like domain containing 1) | -1.25 | active
CROT (carnitine O-octanoyltransferase) | -0.586 | inactive
LRP5L (LDL receptor related protein 5 like (pseudogene)) | -1.13 | active
CDC73 (cell division cycle 73) | 1.15 | active
OLIG2 (oligodendrocyte transcription factor 2) | -0.777 | inactive
SNX8 (sorting nexin 8) | -0.984 | inactive
LILRB2 (leukocyte immunoglobulin like receptor B2) | 1.33 | active
BTN3A3 (butyrophilin subfamily 3 member A3) | -1.87 | active
TCEAL6 (transcription elongation factor A like 6) | -0.375 | inactive
USF3 (upstream transcription factor family member 3) | -0.215 | inactive
MTHFD2 | -1.22 | active
HMGA1 (high mobility group AT-hook 1) | -2.39 | active
GFRA1 (GDNF family receptor alpha 1) | -1.1 | active
GHDC (GH3 domain containing) | 0.636 | inactive
SCGB1C1 (secretoglobin family 1C member 1) | 1.04 | active
PNPLA7 (patatin like domain 7, lysophospholipase) | 0.871 | inactive
FGF11 (fibroblast growth factor 11) | 2.62 | active
CLEC9A (C-type lectin domain containing 9A) | 0.779 | inactive
CLDN5 (claudin 5) | -1.33 | active
ZNF521 (zinc finger protein 521) | 0.69 | inactive
MISO1 (mitochondrial inner membrane subdomain organizer 1) | -0.613 | inactive
CBLN2 (cerebellin 2 precursor) | -1.25 | active
AGO1 (argonaute RISC component 1) | 0.783 | inactive
SPTA1 (spectrin alpha, erythrocytic 1) | -1.58 | active
RAPGEF3 (Rap guanine nucleotide exchange factor 3) | -0.318 | inactive
REP15 (RAB15 effector protein) | -1.38 | active
BCL2L14 (BCL2 like 14) | 1.13 | active
OR5AU1 (olfactory receptor family 5 subfamily AU member 1) | 0.31 | inactive
GPRASP3 | 0.627 | inactive
GNG4 (G protein subunit gamma 4) | -1.29 | active
EHBP1 (EH domain binding protein 1) | 0.64 | inactive
STAT4 (signal transducer and activator of transcription 4) | -1.68 | active
POLR3GL (RNA polymerase III subunit GL) | -1.6 | active
GSTK1 (glutathione S-transferase kappa 1) | 1.85 | active
CLEC2B (C-type lectin domain family 2 member B) | 0.905 | inactive
TGFB1 (transforming growth factor beta 1) | -0.739 | inactive
MTIF3 (mitochondrial translational initiation factor 3) | 1.67 | active
KRT26 (keratin 26) | -1.45 | active
RBM5 (RNA binding motif protein 5) | -0.388 | inactive
PHYH (phytanoyl-CoA 2-hydroxylase) | -1.12 | active
FHIP2B (FHF complex subunit HOOK interacting protein 2B) | 0.872 | inactive
